Compound potency records, mixed from different reports. Data source: NIAID ChemDB in PubChem.

Shared fields: toxicity to cultured cells; cells: MT-4; endpoint: CC50

CCn is the concentration with n% toxicity to the cells. Neighbouring rows are from separate reports.

SMILES | method | value
O=C(N/N=C/c1cc([N+](=O)[O-])ccc1Cl)c1csc(N2N=C(c3ccccc3)CC2c2ccc(Cl)cc2)n1 | MTT / absorbance | >125 µM
c1cc(CCNCCCN2CCCCC2)ccc1CCNCCCN1CCCCC1 | MTT | 113 µM
CC1=NO[C@@]2(CC[C@H](C)N3C[C@H]2n2cc(C(=O)NCc4ccc(F)cc4F)c(=O)c(OCOC(=O)N4CCOC[C@H]4COP(=O)(O)O)c2C3=O)C1 | luminescence | 50 µM
O=C(N/N=C/c1ccc(Cl)cc1O)c1csc(N2N=C(c3ccccc3)CC2c2ccc(Cl)cc2)n1 | MTT / absorbance | 1.35 µM
CC1=NO[C@@]2(CC[C@H](C)N3C[C@H]2n2cc(C(=O)NCc4ccc(F)cc4F)c(=O)c(OCOC(=O)N4CC[C@H]4COP(=O)(O)O)c2C3=O)C1 | luminescence | 39 µM
O=C(N/N=C/c1ccc(OCc2ccccc2)cc1)c1csc(N2N=C(c3ccccc3)CC2c2ccc(Cl)cc2)n1 | MTT / absorbance | >125 µM
COC(=O)[C@H](Cc1ccc(O)cc1)NP(=O)(OC[C@H]1C=C[C@@H](n2cnc3c(N)ncnc32)C1)Oc1ccccc1 | MTS | >32 µM
O=C(N/N=C/c1c(Cl)cccc1Cl)c1csc(N2N=C(c3ccccc3)CC2c2ccc(Cl)cc2)n1 | MTT / absorbance | 6.26 µM
COC(=O)[C@@H](Cc1c[nH]c2ccccc12)NP(=O)(OC[C@H]1C=C[C@@H](n2cnc3c(N)ncnc32)C1)Oc1ccccc1 | trypan blue | 66.9 µM
CCN[C@H]1CO[C@@H]2OC[C@H](OC(=O)N[C@@H](Cc3cc(F)cc(F)c3)[C@H](O)CN(CC(C)C)S(=O)(=O)c3ccc4nc(NC5CC5)sc4c3)[C@@H]21 | WST | 42.8 µM
CC1=NO[C@@]2(CC[C@H](C)N3C[C@H]2n2cc(C(=O)NCc4ccc(F)cc4F)c(=O)c(OCOC(=O)OCCC(C)(C)c4c(CC(=O)O)cc(C)cc4OP(=O)(O)O)c2C3=O)C1 | luminescence | 11.6 µM
COC(=O)[C@H](Cc1ccc(OC(C)(C)C)cc1)NP(=O)(OC[C@H]1C=C[C@@H](n2cnc3c(N)ncnc32)C1)Oc1ccccc1 | MTS | <40 µM
C=C(C)C12C[C@@H](COCc3ccccc3)[C@@]3(OO1)[C@@H]1[C@H]2OCCCCCCC[C@@H](C)[C@H]2[C@H](C)C(=O)[C@@](O)([C@H](O)[C@@]4(CO)O[C@@H]14)[C@@H]23 | ATP / luminescence | 7.3 µM
Cc1c(C)c2c(c3c1CC[n+]1ccc(/C=C4\Sc5ccccc5N4C)cc1-3)-c1cccc(/C=C3\Sc4ccccc4N3C)[n+]1CC2.O=S(=O)([O-])C(F)(F)F.O=S(=O)([O-])C(F)(F)F | absorbance | 1.3 µM
Cc1ccc(/C=N/NC(=O)c2csc(N3N=C(c4ccccc4)CC3c3ccc(Cl)cc3)n2)cc1 | MTT / absorbance | >125 µM
COC(=O)[C@H](C)NP(=O)(OC[C@H]1C=C[C@@H](n2cnc3c(N)ncnc32)C1)Oc1ccccc1 | trypan blue | 16.4 µM
CN1CCN(CCCNC(=O)Cc2ccc(CC(=O)NCCCN3CCN(C)CC3)cc2)CC1 | MTT | >264 µM
CCCCCCCCCCCCCC(=O)Oc1ccc(C(=O)Oc2c3n(cc(C(=O)NCc4ccc(F)cc4F)c2=O)[C@@H]2CN(C3=O)[C@@H](C)CC[C@]23CC(OC)=NO3)cc1 | luminescence | 50 µM
C=C(C)C12C[C@@H](COCc3ccccc3)[C@@]3(OO1)[C@@H]1[C@H]2OCCCCCCC[C@@H](C)[C@H]2[C@H](C)[C@H](OCc4ccccc4)[C@@](O)([C@H](O)[C@@]4(CO)O[C@@H]14)[C@@H]23 | ATP / luminescence | 14.5 µM
C/C=C1/C(=O)OCC[C@@H]1C=O | ATP / luminescence | >10 µM
CCN[C@H]1CO[C@@H]2OC[C@H](OC(=O)N[C@@H](Cc3ccccc3)[C@H](O)CN(CC(C)C)S(=O)(=O)c3ccc4nc(NC5CC5)sc4c3)[C@@H]21 | WST | 40.5 µM
CC1=NO[C@@]2(CC[C@H](C)N3C[C@H]2n2cc(C(=O)NCc4ccc(F)cc4F)c(=O)c(OC(=O)N(C)c4ncc(C(=O)N[C@@H](CC(=O)O)C(=O)O)cc4COP(=O)(O)O)c2C3=O)C1 | luminescence | 50 µM
COc1ccc(/C=N/NC(=O)c2csc(N3N=C(c4ccccc4)CC3c3ccc(Cl)cc3)n2)cc1O | MTT / absorbance | 61.75 µM
CCC[C@]1(CCc2ccccc2)CC(O)=C([C@@H](CC)c2cccc(NS(=O)(=O)c3ccc(C(F)(F)F)cn3)c2)C(=O)O1 | WST | 42.8 µM
COC(=O)[C@H](CCCCN)NP(=O)(OC[C@H]1C=C[C@@H](n2cnc3c(N)ncnc32)C1)Oc1ccccc1 | trypan blue | >250 µM
CC1=NO[C@@]2(CC[C@H](C)N3C[C@H]2n2cc(C(=O)NCc4ccc(F)cc4F)c(=O)c(OCOC(=O)N(C)c4ncccc4CN(CC(=O)O)C(=O)OCOP(=O)(O)O)c2C3=O)C1 | luminescence | 10.1 µM
CC1CCCCN1CCCNCCc1ccc(CCNCCCN2CCCCC2C)cc1 | MTT | 117 µM
CC(C)[C@H]1CC[C@]2(C(=O)O)CC3=C(C[C@@H]12)[C@]1(C)[C@@H]2CC[C@@H](C)C21CC[C@H]3C | ATP / luminescence | 6.6 µM
C=C(C)C12C[C@@H](COC(C)=O)[C@@]3(OO1)[C@@H]1[C@H]2O[C@H](O)CCCCCC[C@@H](C)[C@H]2[C@H](C)[C@H](OCc4ccccc4)[C@@](O)([C@H](O)[C@@]4(CO)O[C@@H]14)[C@@H]23 | ATP / luminescence | 4.3 µM
CC1CCCCN1CCCNCc1ccc(CCNCCCN2CCOCC2)cc1 | MTT | >60 µM
Cc1nc2ccccc2c(-c2ccc3c4c(ccnc24)[C@H]2C[C@@H]32)c1[C@H](OC(C)(C)C)C(=O)O | ATP | >53.2 µM
O=C(N/N=C/c1ccccc1)c1csc(N2N=C(c3ccccc3)CC2c2ccc(Cl)cc2)n1 | MTT / absorbance | 0.45 µM
COC(=O)[C@H](NP(=O)(OC[C@H]1C=C[C@@H](n2cnc3c(N)ncnc32)C1)Oc1ccccc1)C(C)C | trypan blue | 101 µM
O=C(N/N=C/c1ccccc1O)c1csc(N2N=C(c3ccccc3)CC2c2ccc(Cl)cc2)n1 | MTT / absorbance | 7.33 µM
CO[C@H]1CC[C@H](C)N2C[C@H]1n1cc(C(=O)NCc3c(F)cc(F)cc3F)c(=O)c(O)c1C2O | luminescence | 34.8 µM

The first 4 rows once more:

SMILES,method,value
O=C(N/N=C/c1cc([N+](=O)[O-])ccc1Cl)c1csc(N2N=C(c3ccccc3)CC2c2ccc(Cl)cc2)n1,MTT / absorbance,>125 µM
c1cc(CCNCCCN2CCCCC2)ccc1CCNCCCN1CCCCC1,MTT,113 µM
CC1=NO[C@@]2(CC[C@H](C)N3C[C@H]2n2cc(C(=O)NCc4ccc(F)cc4F)c(=O)c(OCOC(=O)N4CCOC[C@H]4COP(=O)(O)O)c2C3=O)C1,luminescence,50 µM
O=C(N/N=C/c1ccc(Cl)cc1O)c1csc(N2N=C(c3ccccc3)CC2c2ccc(Cl)cc2)n1,MTT / absorbance,1.35 µM